Source: PMC9115111, “Metalloprotease Gp63-Targeting Novel Glycoside Exhibits Potential Antileishmanial Activity” (Frontiers in Cellular and Infection Microbiology, 2022)

System: J774.A1 murine macrophage cells
Assay: MTT cell viability assay on macrophages
Type: cell-based
Conditions: selectivity index = CC50 / IC50 against promastigotes
Experimental: The J774.A1 murine macrophage cells were grown in Roswell Park Memorial Institute (RPMI) 1640 medium in the presence of 10% (v/v) FBS and 100 U/ml penicillin−100 µg/ml streptomycin (Gibco, Invitrogen, Thermo Fisher Scientific, NY, USA) at 37°C (humidified) and 5% CO2. […] Madin–Darby canine kidney (MDCK) cells were obtained from the National Centre for Cell Science, Pune, India. MDCK cells were derived from the kidney tissue of an adult female Cocker Spaniel. These were grown in Dulbecco’s modified Eagle’s minimal essential medium (DMEM) in the presence of 10% (v/v) FBS and 100 U/ml penicillin−100 µg/ml streptomycin (Gibco, Invitrogen, Thermo Fisher Scientific, NY, USA) at 37°C (humidified) and 5% CO2 ([Ayana et al., 2018]; [Shivappagowdar et al., 2021]).
All the compounds were dissolved in dimethyl sulfoxide (DMSO) (Sigma-Aldrich) for 1 mM stock solution and were screened against promastigotes at a concentration of 5 µM. For Glycosides (Gly) 2, 6, and 8, a range of concentrations starting from 100 nM to 100 µM were screened against promastigote forms of parasite and mammalian cells. Parasites (AG83 and PKDL strain) treated with amphotericin B (3 µg/ml) (Sigma-Aldrich) were maintained as the positive control.
To evaluate the cytotoxic effects of 12 compounds on L. donovani promastigotes, LDH assay was performed. This assay involves the reduction of tetrazolium salts to formazan during LDH-mediated catalysis of lactate to pyruvate, which can be detected at […]. Rate of formazan formation is proportional to the release of LDH through damaged cell membranes. For the preliminary screening, the promastigotes were incubated with 12 compounds at a single concentration of 5 µM for a period of 72 h, and the released LDH was estimated ( Supplementary Figure S1A ). Amphotericin B-treated promastigotes were taken as the positive control. […] Having observed the antileishmanial effect of Gly2 on growth and proliferation of promastigotes, we next investigated the cytotoxicity of Gly2 on mammalian cells (MDCK, J774.1A) through MTT (3-(4, 5-dimethylthiazolyl-2)-2, 5-diphenyltetrazolium bromide) cell viability assay ( Supplementary Figures S1B, C ). […] The CC50 values of Gly2 analog was in the micromolar range. The selectivity index (SI) for the compound was calculated as the ratio between cytotoxicity (CC50) and activity (IC50) against promastigotes ( Table 1 ).

Structure (SMILES) | SI Macrophages
CCOC1O[C@H](CO)[C@@H](O)[C@H](O)[C@H]1NC(C)=O (stereo partly drawn) [Gly1, ethyl glycoside N-Acetyl-D-glucosamine] | 3.813
CCCCCCOC1O[C@H](CO)[C@@H](O)[C@H](O)[C@H]1O (some centres unmarked) [Gly3] | 132.090
CCCCOC1O[C@H](COC(C)=O)[C@@H](OC(C)=O)[C@H](OC(C)=O)[C@H]1OC(C)=O (some centres unmarked) [Gly4] | 36.304
CCCCCCOC1O[C@H](COC(C)=O)[C@@H](OC(C)=O)[C@H](OC(C)=O)[C@H]1OC(C)=O (some centres unmarked) [Gly5] | 26.666
CC(=O)OC[C@H]1OC(OCCC(C)C)[C@H](OC(C)=O)[C@@H](OC(C)=O)[C@@H]1OC(C)=O (some centres unmarked) [Gly6] | 303.823
CCOC1O[C@H](COC(C)=O)[C@@H](OC(C)=O)[C@H](OC(C)=O)[C@H]1OC(C)=O (some centres unmarked) [Gly7] | 3.883
CCCOC1O[C@H](COC(C)=O)[C@@H](OC(C)=O)[C@H](OC(C)=O)[C@H]1OC(C)=O (stereo partly drawn) [Gly8, (2R,3R,4S,5R)-2-(acetoxymethyl)-6-propoxytetrahydro-2H-pyran-3,4,5-triyl triacetate] | 599.375
CC(=O)OC[C@H]1OC(OC(C)C)[C@H](OC(C)=O)[C@@H](OC(C)=O)[C@@H]1OC(C)=O (some centres unmarked) [Gly9] | 7.111
CCCOC1O[C@H](COC(C)=O)[C@@H](OC(C)=O)[C@H](OC(C)=O)[C@H]1NC(C)=O (some centres unmarked) [Gly10] | 9.476
CC(=O)N[C@H]1[C@@H](OCCC(C)C)O[C@H](COC(C)=O)[C@@H](OC(C)=O)[C@@H]1OC(C)=O [Gly11] | 4.162
CCCCO[C@H]1O[C@H](COC(C)=O)[C@@H](OC(C)=O)[C@H](OC(C)=O)[C@H]1NC(C)=O [Gly12] | 2.936
